Results reported in patent publication US20240115712A1, “SEMICARBAZONE-BASED SAPONIN CONJUGATE” (priority 2021, published 2024).

Key:
SK-BR-3 cells = assay: Targeted cell killing assay (MTS) with fixed toxin concentration; format: cell-based, human; conditions: equivalent concentrations, without CD71mab-saporin
CaSki cells = assay: as above; format: cell-based, human; conditions: equivalent concentrations, without CD71mab-saporin

Substance | cell killing activity of conjugate alone (SK-BR-3 cells) | cell killing activity of conjugate alone (CaSki cells)
Cetuximab-(EMCH-SO1861)^4: SO1861-EMCH conjugated to Cetuximab cysteines, hydrazone comparator | could not induce any significant cell killing activity | –
Cetuximab-(SC-SO1861)^4: SO1861-SC-Mal conjugated via cysteine residues to Cetuximab, DAR 4 | could not induce any significant cell killing activity | could not induce any cell killing activity
